Pooled drug test results. Numbers come from NIAID ChemDB, via PubChem.

Shared fields: cytotoxicity tests; cells: MT-4; endpoint: CC50

Blank or dashed fields: not listed here.

compound | read by | result
CN(C)C(=O)Oc1nsnc1-c1c(Cl)cccc1Cl | - | 190 µM
COc1ccccc1N1CCN(CCCCN2C(=O)CCC(c3ccccc3)C2=O)CC1 | MTT | >100 µM
CC(C)(C)OC(=O)CNC(=O)[C@@H](NC(=O)c1ccccc1-c1ccccc1)[C@@H]1N[C@@H](C(=O)NCCNC(=O)[C@@H]2N[C@@H]([C@H](NC(=O)c3ccccc3-c3ccccc3)C(=O)NCC(=O)OC(C)(C)C)SC2(C)C)C(C)(C)S1 | - | >100 µM
CCCCNC(=O)Oc1nsnc1-c1c(Cl)cccc1Cl | - | 129 µM
COc1ccccc1N1CCN(CCCN2C(=O)CCC(c3ccccc3)C2=O)CC1 | MTT | >100 µM
O=C1c2cccn2S(=O)(=O)c2ccccc2N1Cc1ccccc1 | - | >300 µM
Cc1cn([C@H]2C=C[C@@H](CO)O2)c(=O)[nH]c1=O | - | 47 µM
C=C(C)C12C[C@@H](COC(C)=O)[C@@]3(OO1)[C@@H]1[C@H]2O[C@H](O)CCCCCC[C@@H](C)[C@H]2[C@H](C)[C@H](OCc4ccccc4)[C@@](O)([C@H](O)[C@@]4(CO)O[C@@H]14)[C@@H]23 | ATP / luminescence | 4.3 µM
CCCN(C)C(=O)Oc1nsnc1-c1c(Cl)cccc1Cl | - | 28.5 µM
O=c1[nH]c(=O)n(COCc2ccccc2)c2c1Nc1ccccc1S2 | MTT | 23 µg/mL
O=C1C2c3cccn3S(=O)(=O)c3ccccc3N2C(=O)CN1Cc1ccccc1 | - | >300 µM
Cc1cn([C@H]2C[C@H](N=[N+]=[N-])[C@@H](CO)O2)c(=O)[nH]c1=O | - | 1 µg/mL
Nc1nccc2c1ncn2[C@@H]1C[C@H](CO)[C@@H](O)[C@H]1O | - | 7.1 µM
C=C(C)C12C[C@@H](COCc3ccccc3)[C@@]3(OO1)[C@@H]1[C@H]2O[C@H](O)CCCCCC[C@@H](C)[C@H]2[C@H](C)[C@H](OCc4ccccc4)[C@@](O)([C@H](O)[C@@]4(CO)O[C@@H]14)[C@@H]23 | ATP / luminescence | 2.8 µM
NC(=O)c1cn([C@H]2C=C[C@@H](CO)O2)c2ncnc(N)c12 | - | 625 µM
C=C(C)C12C[C@@H](COCc3ccccc3)[C@@]3(OO1)[C@@H]1[C@H]2OCCCCCCC[C@@H](C)[C@H]2[C@H](C)[C@H](OCc4ccccc4)[C@@](O)([C@H](O)[C@@]4(CO)O[C@@H]14)[C@@H]23 | ATP / luminescence | 14.5 µM
NC(=O)c1cn([C@H]2CC[C@@H](CO)O2)c2ncnc(N)c12 | - | 242 µM
CCOC(=O)C1c2cccn2S(=O)(=O)c2ccccc2N1C(C)=O | - | >300 µM
Cc1cn([C@H]2C=C[C@@H](COP(=O)(OCc3ccccc3)OCc3ccccc3)O2)c(=O)[nH]c1=O | - | 74 µM
O=S1(=O)c2ccccc2NCc2cccn21 | - | 129 µM
O=C1CCC(c2ccccc2)C(=O)N1CCCN1CCN(c2ncccn2)CC1 | MTT | >100 µM
CCOC(=O)C1c2cccn2S(=O)(=O)c2ccccc2N1c1ccc(C)cc1 | - | >300 µM
CCN(C)C(=O)Oc1nsnc1-c1c(Cl)cccc1Cl | - | 29 µM
O=c1[nH]c(=O)n(COCCO)c2c1Nc1ccccc1S2 | MTT | 276 µg/mL
O=C(Cc1ccc(Cl)cc1)OCC1Nc2ccccc2S(=O)(=O)n2cccc21 | - | 240 µM
CC1(C)S[C@H]([C@H](NC(=O)Cc2ccccn2)C(=O)NCc2ccccc2)N[C@H]1C(=O)NCCNC(=O)[C@@H]1N[C@@H]([C@H](NC(=O)Cc2ccccn2)C(=O)NCc2ccccc2)SC1(C)C | - | >100 µM
C[C@H](NC(=O)[C@H](CCCN=C(N)N)NC(=O)c1ccc(CNCc2ccccn2)cc1)c1cccc2ccccc12 | MTT | 406 µM
Cc1cn([C@H]2C[C@H](N=[N+]=[N-])[C@@H](COP(=O)(O)OCc3ccccc3)O2)c(=O)[nH]c1=O | - | >100 µM
c1ccc2c(c1)Cn1ccnc1-c1nnc(-c3ccncc3)n1-2 | - | >300 µM
Cc1cn([C@H]2C[C@H](N=[N+]=[N-])[C@@H](CO)O2)c(=O)[nH]c1=O | - | >100 µM
COC(=O)[C@@H](NC(=O)Cc1ccccc1)[C@@H]1N[C@@H](C(=O)NCCNC(=O)[C@@H]2N[C@@H]([C@H](NC(=O)Cc3ccccc3)C(=O)OC)SC2(C)C)C(C)(C)S1 | - | >100 µM
Nc1nc(N)c2ncn([C@H]3C=C[C@@H](CO)O3)c2n1 | - | 35 µM
CC1(C)S[C@H]([C@H](NC(=O)c2ccccc2-c2ccccc2)C(=O)NCC(=O)O)N[C@H]1C(=O)NCCNC(=O)[C@@H]1N[C@@H]([C@H](NC(=O)c2ccccc2-c2ccccc2)C(=O)NCC(=O)O)SC1(C)C | - | >100 µM
CC[C@H](C)C(=O)O[C@H]1C[C@@H](C)C=C2C=C[C@H](C)[C@H](CC[C@@H]3C[C@@H](O)CC(=O)O3)[C@H]21 | - | 0.8–5.6 µg/mL
Cc1cn([C@H]2C[C@H](N=[N+]=[N-])[C@@H](CO)O2)c(=O)[nH]c1=O | MTT | 8.3 µg/mL
O=C1CCC(c2ccccc2)C(=O)N1CCCCN1CCN(Cc2ccccc2)CC1 | MTT | >100 µM

Two numbers with a dash give a range or band. Rows are shuffled and stem from different studies. CCn is the concentration with n% toxicity to the cells.